Pooled drug test results. Numbers come from NIAID ChemDB, via PubChem.

All rows: host cell toxicity; cell line: MT-4; measure: CC50

An empty or dashed field is not shown. Conditions beyond the fields shown may differ between rows. CCn is the concentration with n% toxicity to the cells.

structure	read by	value
COc1cc(Cc2cnc(/N=C3\C(=O)N(CN4CCN(c5ccc(Cl)cc5)CC4)c4ccc(F)cc43)nc2N)cc(OC)c1OC	MTT	90.1 µg/mL
Cc1c(Cc2c(F)cccc2F)nc(Nc2ccc(C#N)cc2)[nH]c1=O	MTT	>2.838 µM
Cc1c(Cc2ccccc2)nc(OC(C)C)[nH]c1=O		243 µM
Nc1ccn([C@H]2CC[C@@H](CO)O2)c(=O)n1		34 µM
Cc1c(Cc2ccccc2)nc(OC2CCCCC2)[nH]c1=O		375 µM
CC(C)CN(C[C@@H](O)[C@H](Cc1ccccc1)NC(=O)O[C@H]1CCOC1)S(=O)(=O)c1ccc2nc[nH]c2c1		>100 µM
COc1cccc(N2CCN(CN3C(=O)/C(=N\c4ncc(Cc5cc(OC)c(OC)c(OC)c5)c(N)n4)c4cc(F)ccc43)CC2)c1	MTT	81.6 µg/mL
CCOP(=O)(CC[C@]1(C(F)(F)F)CC[C@H](n2cnc3c(Cl)nc(N)nc32)C1)OCC	MTT	>100 µM
CCN(CC)CN1C(=O)/C(=N\c2ncc(Cc3cc(OC)c(OC)c(OC)c3)c(N)n2)c2cc(F)ccc21	MTT	141 µg/mL
COc1cccc2c1[nH]c(=S)n2Cc1c(F)cccc1F		0.44 µg/mL
C#CCO[C@]12CS(=O)(=O)O[C@@]13[C@@H](CN2)O[C@@H](n1cc(C)c(=O)[nH]c1=O)[C@@H]3O[Si](C)(C)C(C)(C)C		49 µM
O=C1CSC(c2c(F)c(F)c(F)c(F)c2F)N1Cc1ccco1		82.6 µM
Cc1cn(CCCCO[C@@H]2O[C@H](CO)[C@@H](N=[N+]=[N-])[C@H]2O)c(=O)[nH]c1=O	MTT	>190 µg/mL
CCCCOc1nc(Cc2ccccc2)c(CC)c(=O)[nH]1		185 µM
CC(c1nnc(SCc2ccc(Br)cc2)o1)N(Cc1ccc(Br)cc1)S(=O)(=O)c1ccc(Cl)cc1		>125 µg/mL
COc1cc(Cc2cnc(/N=C3\C(=O)N(CN(C)C)c4ccc(F)cc43)nc2N)cc(OC)c1OC	MTT	62.7 µg/mL
Nc1nc2c(ncn2[C@H]2CC[C@](CCP(=O)(O)O)(C(F)(F)F)C2)c(=O)[nH]1	MTT	>100 µM
Cc1cc(C)cc(S(=O)(=O)c2c(C(N)=O)[nH]c3c(Cl)cc(Cl)cc23)c1	MTT	>200 µM
CO[C@]12CS(=O)(=O)O[C@@]13C(CN2)O[C@@H](n1cc(C)c(=O)[nH]c1=O)[C@@H]3O[Si](C)(C)C(C)(C)C		63 µM
CCOC(=O)c1c(C)n([C@H]2C[C@@H]2c2ccccc2)c2ccc(OC(C)=O)c(O)c12	MTT	50 µM
Cc1ccccc1-c1nc(-c2nnc(C34CCC5CC(CC3C5)C4)o2)cs1	MTT	≥10.5 µM
N#Cc1cc(C#N)cc(Oc2cc(Cl)cc(OCC(=O)Nc3ccc(S(N)(=O)=O)cc3Cl)c2)c1	microscopy	>20 µM
CCCCCOc1nc(Cc2ccccc2)cc(=O)[nH]1		245 µM
Cc1cccc(-c2nc(-c3nnc(C45CCC6CC(CC4C6)C5)o3)cs2)c1	MTT	>125 µM
N#Cc1ccc(Nc2nccc(Cc3c(F)cccc3F)n2)cc1	MTT	>77.6 µM
CC(NS(=O)(=O)c1ccc(Cl)cc1)c1nnc(SCc2ccc(Cl)cc2)o1		14.08 µg/mL
Cc1cn([C@@H]2O[C@@H]3CN[C@@]4(C(N)=O)CS(=O)(=O)O[C@@]34[C@H]2O)c(=O)[nH]c1=O		>250 µM
Cc1cnc(Nc2ccc(C#N)cc2)nc1Cc1c(F)cccc1F	MTT	>74.33 µM
CC(C)CN(C[C@@H](O)[C@H](Cc1ccccc1)NC(=O)O[C@H]1CCOC1)S(=O)(=O)c1ccc2ncn(C)c2c1		>32.4 µM
Cc1c(N)nc(Nc2ccc(C#N)cc2)nc1C(C)c1c(F)cccc1F	MTT	40.5 µM
COc1nc(Cc2ccccc2)cc(=O)[nH]1		>1000 µM
Cc1cn([C@@H]2O[C@@H]3CN[C@@]4(OCC(C)(C)C)CS(=O)(=O)O[C@@]34[C@H]2O[Si](C)(C)C(C)(C)C)c(=O)[nH]c1=O		12 µM
Cc1cc(C)cc(S(=O)(=O)c2c(C(=O)NCC(N)=O)[nH]c3ccc(Cl)cc23)c1		30 µM
Fc1ccc(-c2nc(-c3nnc(C45CCC6CC(CC4C6)C5)o3)cs2)cc1	MTT	75.2 µM
O=c1[nH]c(=O)n([C@H]2C=C[C@@H](CO)O2)cc1Cl		45 µM
COc1ccc(C2SCC(=O)N2Cc2ccco2)cc1		85.64 µM
Cc1cc(C)cc(S(=O)(=O)c2c(C(=O)NCC(=O)NC(C)C(=O)NN)[nH]c3ccc(Cl)cc23)c1		100 µM
CCCC(C(=O)O)c1c(C)nc2ccc(Cl)cc2c1-c1ccccc1		59.8 µM
COc1ccccc1C1SCC(=O)N1Cc1ccco1		57.78 µM
Fc1cccc(F)c1Cn1c(=S)[nH]c2ccc(Cl)cc21		2.33 µg/mL
N#Cc1cc(Cl)cc(Oc2cc(Cl)cc(OCc3nc4ccccc4s3)c2)c1	microscopy	>20 µM
CC(C)CN(C[C@@H](O)[C@H](Cc1ccccc1)NC(=O)OCc1cccnc1)S(=O)(=O)c1ccc2nc(N)[nH]c2c1		>100 µM
Cc1c(Cl)nc(Nc2ccc(C#N)cc2)nc1C(C)c1c(F)cccc1F	MTT	>13 µM
O=C1CSC(c2c(F)cccc2F)N1Cc1ccccn1		302 µM
Cc1ccc(S(=O)(=O)N(Cc2ccc(Br)cc2)C(C)c2nnc(SCc3ccc(Br)cc3)o2)cc1		>125 µg/mL
CCCCO[C@]12CS(=O)(=O)O[C@@]13C(CN2)O[C@@H](n1cc(C)c(=O)[nH]c1=O)[C@@H]3O[Si](C)(C)C(C)(C)C		18 µM
O=C(NC(=S)NCCc1ccccc1Cl)c1csc(-c2ccccc2)n1	MTT	32.22 µM
Cc1cc(C)cc(S(=O)(=O)c2c(C(=O)NC(C)C(N)=O)[nH]c3ccc(Cl)cc23)c1		4 µM
CCCCCOc1nc(Cc2ccccc2)c(C)c(=O)[nH]1		195 µM
CC(C)CN(C[C@@H](O)[C@H](Cc1ccccc1)NC(=O)OC1COC2OCCC12)S(=O)(=O)c1ccc2nc(N)[nH]c2c1		>100 µM
O=C1CSC(c2c(F)cccc2Cl)N1Cc1ccco1		97.76 µM
COC(=O)Nc1nc2ccc(S(=O)(=O)N(CC(C)C)C[C@@H](O)[C@H](Cc3ccccc3)NC(=O)COc3c(C)cc(C#N)cc3C)cc2[nH]1		>100 µM
CN(C)S(=O)(=O)c1ccc2c(c1)CCN2C(=O)COc1cc(Cl)cc(Oc2cc(Cl)cc(C#N)c2)c1	microscopy	>20 µM
CC(C)CN(C[C@@H](O)[C@H](Cc1ccccc1)NC(=O)O[C@H]1CO[C@H]2OCC[C@H]21)S(=O)(=O)c1ccc2ncn(CCO)c2c1		>100 µM
COc1ccc2[nH]c(=S)n(Cc3c(F)cccc3F)c2n1		17.81 µg/mL
Cc1ccc(-c2nc(-c3nnc(C45CCC6CC(CC4C6)C5)o3)cs2)cc1	MTT	105.7 µM
Cc1ccc(CN2C(=O)CSC2c2c(F)cccc2Cl)o1		46.9 µM
CSCCC(NS(=O)(=O)c1ccc(Cl)cc1)c1nnc(SCc2ccc(Br)cc2)o1		>12.3 µg/mL
O=C1CSC(c2c(Cl)cccc2Cl)N1Cc1cccs1		41.33 µM
Cc1c(Cl)nc(Nc2ccc(C#N)cc2)nc1Cc1c(F)cccc1F	MTT	>2.697 µM
COc1cc(Cc2cnc(/N=C3\C(=O)N(CN4CCN(c5cccc(C(F)(F)F)c5)CC4)c4ccc(F)cc43)nc2N)cc(OC)c1OC	MTT	136.6 µg/mL
Cc1cn([C@H]2C[C@H](N=[N+]=[N-])[C@@H](CO)O2)c(=O)[nH]c1=O	MTT	>100 µM
N#Cc1cc(Cl)cc(Oc2cc(OCc3[nH]nc4nc(N5CCOCC5)ccc34)ccc2Cl)c1	microscopy	>20 µM
Cc1ccc2[nH]c(=S)n(Cc3c(F)cccc3F)c2c1		>25 µg/mL
N#Cc1cc(Cl)cc(Oc2cc(Cl)cc(OCC(=O)Nc3ccc(C#N)cc3Cl)c2)c1	microscopy	>20 µM
O=C1CSC(c2c(F)cccc2F)N1Cc1ccco1		208 µM
Cc1cccc(C)c1OCC(=O)N[C@@H](Cc1ccccc1)[C@H](O)CN(CC(C)C)S(=O)(=O)c1ccc2ncn(CCc3ccccc3)c2c1		>100 µM
CC(c1cc(Cl)nc(Nc2ccc(C#N)cc2)n1)c1c(F)cccc1F	MTT	>2.697 µM
Cc1cn([C@@H]2O[C@@H]3CN[C@@]4(O[Si](C)(C)C(C)(C)C)CS(=O)(=O)O[C@@]34[C@H]2O[Si](C)(C)C(C)(C)C)c(=O)[nH]c1=O		9.1 µM
COC(=O)Nc1nc2ccc(S(=O)(=O)N(CC(C)C)C[C@@H](O)[C@H](Cc3ccccc3)NC(=O)OC3COC4OCCC34)cc2[nH]1		79.4 µM
Cc1cn([C@@H]2O[C@@H]3CN[C@@]4(C(N)=O)CS(=O)(=O)O[C@@]34[C@H]2O[Si](C)(C)C(C)(C)C)c(=O)[nH]c1=O		108 µM
CCCN(C)c1nc(C(C)c2c(F)cccc2F)c(C)c(=O)[nH]1	MTT	>311 µM
CC(NC(=O)c1[nH]c2ccc(Cl)cc2c1S(=O)(=O)c1ccccc1)C(N)=O		64 µM
Cc1cnc(Nc2ccc(C#N)cc2)nc1C(C)c1c(F)cccc1F	MTT	71.4 µM
C=CCO[C@]12CS(=O)(=O)O[C@@]13[C@@H](CN2)O[C@@H](n1cc(C)c(=O)[nH]c1=O)[C@@H]3O[Si](C)(C)C(C)(C)C		24 µM
CCC(C)Oc1nc(Cc2ccccc2)c(C)c(=O)[nH]1		180 µM
CO[C@]12CS(=O)(=O)O[C@@]13[C@@H](CN2)O[C@@H](n1cc(C)c(=O)[nH]c1=O)[C@@H]3O		>250 µM
CCCCOc1nc(Cc2ccccc2)cc(=O)[nH]1		290 µM